Results of unrelated studies side by side (data: NIAID ChemDB).

Shared fields: whole-cell or culture tests

Blank or dashed fields: not listed here.

CCOC(=O)Nc1cc(NC(C)/C(=N/O)c2cccc([N+](=O)[O-])c2)c([N+](=O)[O-])c(N)n1 ; read-out: inhibition ; cell line: RK-13 ; tested at: 1 µg/mL ; species: Encephalitozoon intestinalis ; result: 0%
C[C@@H]1CN(c2c(F)c(N)c3c(=O)c(C(=O)O)cn(C4CC4)c3c2F)C[C@H](C)N1 ; read-out: MIC ; read by: broth dilution ; strain or isolate: 9 ; species: Mycobacterium avium complex ; result: 2 µg/mL
CC(=O)N[C@@H](CC(C)C)C(=O)N[C@@H](CC(C)C)C(=O)N[C@H](C=O)CCCN=C(N)N ; read-out: inhibition ; tested at: 100 µg/mL ; species: Cryptosporidium parvum ; result: 48.1%
Nc1ccc(S(=O)(=O)c2ccc(N)cc2)cc1 ; read-out: MBC ; strain or isolate: ATCC 19423 ; species: Mycobacterium ulcerans ; result: 4 µg/mL
NC(=O)c1ncn([C@@H]2O[C@H](CO)[C@@H](O)[C@H]2O)c1O ; read-out: EC50 ; read by: plaque count ; cell line: VERO ; strain or isolate: ECXH-3 ; species: Mumps virus ; result: 30.2 µg/mL
c1ccc(N=Nc2ccccc2)cc1 ; read-out: EC50 ; read by: cytopathic effect ; cell line: VERO ; species: Tacaribe virus ; result: 35.2 µM
Nc1nc2c(ncn2CCOCP(=O)(O)O)c(=O)[nH]1 ; read-out: EC50 ; read by: neutral red ; strain or isolate: 14702 (TYPE 3) ; species: Parainfluenza virus ; result: 10 µg/mL
COc1cc(Cc2cnc(N)nc2N)cc(OC)c1OCCCNc1ccc(S(=O)(=O)c2ccc(N)cc2)cc1 ; read-out: MBC ; strain or isolate: ATCC 35840 ; species: Mycobacterium ulcerans ; result: 2 µg/mL
Nc1nc(=O)c2ncn(COCCOCc3ccccc3)c2c(=O)[nH]1 ; read-out: EC50 ; read by: cytopathic effect ; cell line: HepG2.2.15 ; species: West Nile virus ; result: 5–10 µM
C=C1NC(=O)C=NN1[C@@H]1O[C@H](CO)[C@@H](O)[C@H]1O ; read-out: EC50 ; read by: GFP / microscopy ; cell line: BC3 ; species: Kaposi sarcoma virus ; result: 0.5 µM
COC(=O)[C@H]1[C@@H]2C[C@@H](O[C@@H]3O[C@H](C)[C@@H](O)[C@H](N)[C@@H]3O)/C=C/C=C/C=C/C=C/C=C/C=C/C=C/[C@H](C)[C@@H](O)[C@H](C)[C@H](C)OC(=O)C[C@H](O)C[C@H](O)[C@@H](O)CC[C@H](O)C[C@H](O)C[C@](O)(C[C@@H]1O)O2 ; read-out: inhibition ; read by: plaque count ; cell line: F6000 ; tested at: 5 µg/mL ; species: Vesicular stomatitis virus ; result: 1%
Nc1nc(=O)c2ncn(COCCO)c2c(=O)[nH]1 ; read-out: EC50 ; read by: cytopathic effect ; cell line: HepG2.2.15 ; species: West Nile virus ; result: >500 µM
NC(=O)N=NC(N)=O ; read-out: EC50 ; read by: cytopathic effect ; cell line: VERO ; species: Tacaribe virus ; result: >100 µM
O=C(O)P(=O)(O)O ; read-out: EC50 ; read by: cytopathic effect ; cell line: HEL ; strain or isolate: DAVIS ; species: Cytomegalovirus ; result: 20 µg/mL
Oc1cc(O)c2c(c1)OC(c1ccc(O)c(O)c1)[C@@H](O)C2 ; read-out: MIC50 ; read by: broth dilution ; strain or isolate: Clinical isolate 3 ; species: Candida tropicalis ; result: >128 µg/mL
C#CC[C@@H](C(=O)N[C@H](/C=C/C(=O)OCC)C[C@@H]1CCNC1=O)n1cccc(NC(=O)c2cc(C)on2)c1=O ; read-out: inhibition ; read by: cytopathic effect / XTT ; cell line: H1-HELA ; strain or isolate: Serotype 12 ; tested at: 0.325 µM ; species: Rhinovirus ; result: 90%
c1cc(CN2CCCNCCNCCCNCC2)ccc1CN1CCCNCCNCCCNCC1 ; read-out: inhibition ; read by: p24 ; cell line: PBMC ; strain or isolate: 92TH001 CLADE E R5 ; tested at: 0.5 µM ; species: HIV-1 ; result: 60%
O=c1cnn([C@@H]2O[C@H](CO)[C@@H](O)[C@H]2O)c(=O)[nH]1 ; read-out: EC50 ; read by: cytopathic effect ; cell line: VERO ; strain or isolate: TYPE 2 (NGC) ; species: Dengue virus ; result: 0.2 µg/mL
c1ccc2[nH]c(-c3cscn3)nc2c1 ; read-out: inhibition ; cell line: RK-13 ; tested at: 1 µg/mL ; species: Encephalitozoon intestinalis ; result: 88.4%
Nc1nc(=O)c2[nH]cnc2c(=O)[nH]1 ; read-out: EC50 ; read by: cytopathic effect ; cell line: HepG2.2.15 ; species: West Nile virus ; result: >500 µM
Nc1nc2c(ncn2COCOCP(=O)(O)O)c(=O)[nH]1 ; read-out: EC90 ; read by: virus yield ; strain or isolate: C243 (TYPE 3) ; species: Parainfluenza virus ; result: >100 µg/mL
Nc1nc(=O)n([C@@H]2CS[C@H](CO)O2)cc1F ; read-out: EC50 ; read by: p27 / ELISA ; cell line: PBMC ; species: SIV ; result: 0.1086 µM
O=c1[nH]cnc2c1ncn2C[C@@H](CO)OCP(=O)(O)O ; read-out: EC50 ; read by: cytopathic effect ; cell line: HEL ; strain or isolate: DAVIS ; species: Cytomegalovirus ; result: >400 µg/mL
CCOC(=O)Nc1cc2c(c(N)n1)N=C(c1cccc(OC)c1)CO2 ; read-out: inhibition ; cell line: RK-13 ; tested at: 0.1 µg/mL ; species: Encephalitozoon intestinalis ; result: 59.1%
NC(=O)c1ncn([C@@H]2O[C@H](CO)[C@@H](O)[C@H]2O)n1 ; read-out: EC50 ; read by: cytopathic effect ; cell line: VERO ; strain or isolate: TYPE 2 ; species: Dengue virus ; result: >80 µg/mL
Oc1ccc2ccccc2c1N=Nc1ccc(F)cc1 ; read-out: EC50 ; read by: GFP / microscopy ; cell line: BC3 ; species: Kaposi sarcoma virus ; result: 0.1 µM
O=c1cnn([C@@H]2O[C@H](CO)[C@@H](O)[C@H]2O)c(=O)[nH]1 ; read-out: EC50 ; read by: cytopathic effect ; cell line: VERO ; strain or isolate: Sicilian ; species: Sandfly fever virus ; result: 0.04 µg/mL
Nc1ncnc2c1ncn2[C@@H]1C=C(CO)[C@@H](O)[C@H]1O ; read-out: MIC ; species: Semliki Forest virus ; result: >10 µg/mL
Cc1cn(C[C@@H](CO)OCP(=O)(O)O)c(=O)[nH]c1=O ; read-out: EC50 ; read by: cytopathic effect ; cell line: HEL ; strain or isolate: DAVIS ; species: Cytomegalovirus ; result: 400 µg/mL
COC(=O)Nc1cc(N)c2c(c1)NC(=O)C(c1ccccc1)N2 ; read-out: inhibition ; cell line: RK-13 ; tested at: 0.1 µg/mL ; species: Encephalitozoon intestinalis ; result: 58.6%
COCC(=O)OC1CCn2c1nc1c2C(=O)C(C)=C(NC(C)=O)C1=O ; read-out: EC50 ; read by: GFP / microscopy ; cell line: BC3 ; species: Kaposi sarcoma virus ; result: 0.5 µM
Cc1ccc(C(=O)Nc2ccc(S(=O)(=O)O)c3cc(S(=O)(=O)O)cc(S(=O)(=O)O)c23)cc1NC(=O)c1cccc(NC(=O)Nc2cccc(C(=O)Nc3cc(C(=O)Nc4ccc(S(=O)(=O)O)c5cc(S(=O)(=O)O)cc(S(=O)(=O)O)c45)ccc3C)c2)c1 ; read-out: EC50 ; read by: cytopathic effect ; cell line: VERO ; strain or isolate: Sicilian ; species: Sandfly fever virus ; result: 14.7 µg/mL
Cc1cn([C@H]2C[C@H](N=[N+]=[N-])[C@@H](CO)O2)c(=O)[nH]c1=O ; read-out: inhibition ; read by: syncytia ; cell line: MT-2 ; strain or isolate: LAV-2 ; tested at: 100 µM ; species: HIV-2 ; result: <99%
COC(=O)[C@]12OC[C@]34[C@H]([C@@H](O)[C@H]1O)[C@@]1(C)CC(=O)C(O)=C(C)[C@@H]1C[C@H]3OC(=O)[C@H](OC(=O)/C=C(\C)C(C)C)[C@@H]24 ; read-out: EC50 ; read by: GFP / microscopy ; cell line: BC3 ; species: Kaposi sarcoma virus ; result: <0.05 µM
CC(C)OC(=O)[C@H](C)N[P@](=O)(OC[C@H]1O[C@@](C#N)(c2ccc3c(N)ncnn23)[C@](C)(O)[C@@H]1OC(=O)C(C)C)Oc1ccccc1 ; read-out: fold resistance ; read by: luciferase ; cell line: 1C ; strain or isolate: 1b Con1 ; species: Hepatitis C virus ; mutations: L31V ; result: 1.6
CC(=O)OC[C@H]1O[C@@H](NC(=O)N(CCCl)N=O)[C@H](OC(C)=O)[C@@H](OC(C)=O)[C@@H]1OC(C)=O ; read-out: EC50 ; read by: GFP / microscopy ; cell line: BC3 ; species: Kaposi sarcoma virus ; result: >100 µM
S=c1nc[nH]c2c1ncn2C1CCCO1 ; read-out: inhibition ; read by: plaque count ; cell line: LLC-MK2 ; strain or isolate: TYPE 2 ; tested at: 10 µM ; species: Dengue virus ; result: 56%
CCOC(=O)Nc1cc2[nH]c(-c3ccc(OC)cc3)nc2c(NC(c2ccccc2)c2ccccc2)n1 ; read-out: inhibition ; cell line: RK-13 ; tested at: 0.01 µg/mL ; species: Encephalitozoon intestinalis ; result: 10.8%
CCCCCCCCCCCCNc1nc(=O)c2ncn(Cc3ccc(OC)cc3)c2c(=O)[nH]1 ; read-out: EC50 ; read by: cytopathic effect ; cell line: HepG2.2.15 ; species: West Nile virus ; result: 5 µM
OC(Cn1cncn1)(Cn1cncn1)c1ccc(F)cc1F ; read-out: MIC ; read by: broth dilution ; strain or isolate: YL 353 ; species: Candida albicans ; result: >512 µg/mL
Nc1ncnc2c1ncn2CCOCP(=O)(O)O ; read-out: MIC ; strain or isolate: TYPE 2 ; species: Adenovirus ; result: >100 µg/mL
Fc1ccccc1-c1nc2ccn(Cc3ccc(-c4ccc(C(F)(F)F)cc4C(F)(F)F)nn3)cc-2n1 ; read-out: fold resistance ; read by: luciferase ; cell line: 1C ; strain or isolate: Con1 ; species: Hepatitis C virus ; mutations: Y448H Y452H ; result: 221
O=c1[nH]cnc2c1ncn2CCOCP(=O)(O)O ; read-out: EC50 ; read by: plaque count ; cell line: HEL ; strain or isolate: AD169 ; species: Cytomegalovirus ; result: 200 µg/mL
COc1cc([C@@H]2c3cc4c(cc3[C@@H](O[C@@H]3O[C@@H]5CO[C@@H](c6cccs6)O[C@H]5[C@H](O)[C@H]3O)[C@H]3COC(=O)[C@H]23)OCO4)cc(OC)c1O ; read-out: inhibition ; tested at: 100 µg/mL ; species: Pneumocystis carinii ; conditions: 7 d ; result: 97%
COC(=O)N[C@H](C(=O)N1CCC[C@H]1c1ncc(-c2ccc(-c3ccc(-c4cnc([C@@H]5CCCN5C(=O)[C@@H](NC(=O)OC)C(C)C)[nH]4)cc3)cc2)[nH]1)C(C)C ; read-out: fold resistance ; read by: luciferase ; cell line: 1C ; strain or isolate: Con1 ; species: Hepatitis C virus ; mutations: Y93H ; result: 44
Nc1nc(N)c2ncn(CCOCP(=O)(O)O)c2n1 ; read-out: MIC ; species: Duck hepatitis B virus ; result: 1 µg/mL
O=c1[nH]c(=O)n([C@H]2C[C@H](O)[C@@H](CO)O2)cc1/C=C/Br ; read-out: EC50 ; read by: plaque count ; cell line: BHK-21/C13 ; species: Sindbis virus ; result: >500 µM
Nc1nccc2c1ncn2[C@@H]1C[C@H](CO)[C@@H](O)[C@H]1O ; read-out: EC50 ; read by: cytopathic effect ; cell line: VERO ; species: Sindbis virus ; result: 20 µg/mL
CC(=O)NC[C@H]1CN(c2ccc(N3CCOCC3)c(F)c2)C(=O)O1 ; read-out: MIC90 ; strain or isolate: Penicillin-resistant ; species: Streptococcus pneumoniae ; result: 1 µg/mL

6 of the rows above, restated:

structure | read-out | read by | cell line | strain or isolate | tested at | species | mutations | conditions | result
COc1cc(Cc2cnc(N)nc2N)cc(OC)c1OCCCNc1ccc(S(=O)(=O)c2ccc(N)cc2)cc1 | MBC |  |  | ATCC 35840 |  | Mycobacterium ulcerans |  |  | 2 µg/mL
Nc1nc(N)c2ncn(CCOCP(=O)(O)O)c2n1 | MIC |  |  |  |  | Duck hepatitis B virus |  |  | 1 µg/mL
COCC(=O)OC1CCn2c1nc1c2C(=O)C(C)=C(NC(C)=O)C1=O | EC50 | GFP / microscopy | BC3 |  |  | Kaposi sarcoma virus |  |  | 0.5 µM
Nc1nccc2c1ncn2[C@@H]1C[C@H](CO)[C@@H](O)[C@H]1O | EC50 | cytopathic effect | VERO |  |  | Sindbis virus |  |  | 20 µg/mL
CCOC(=O)Nc1cc(NC(C)/C(=N/O)c2cccc([N+](=O)[O-])c2)c([N+](=O)[O-])c(N)n1 | inhibition |  | RK-13 |  | 1 µg/mL | Encephalitozoon intestinalis |  |  | 0%
c1ccc(N=Nc2ccccc2)cc1 | EC50 | cytopathic effect | VERO |  |  | Tacaribe virus |  |  | 35.2 µM

Inhibition is in % at the dose shown (toxicity tests: loss of growth or viability). Lines come from different laboratories, so protocols vary. Fold resistance: result on the changed form divided by that on wild type. Two numbers with a dash give a range or band. ECn: concentration that inhibits the pathogen or its effect by n%. MIC50, MIC90 and the like: level of inhibition, or share of isolates inhibited.